From US8563067B2, “Extended shelf life and bulk transport of perishable organic liquids with low pressure carbon dioxide” (Cornell Research Foundation, Inc., priority 2004, dated 2013)

Assays:
casein = conditions: cited from earlier work
milk solids = assay: Protein precipitation of raw milk under CO2 pressure (percentage precipitated solids); format: physicochemical; conditions: for precipitation: 5° C.

In the case of O=C=O [CO2, carbon dioxide], the “precipitation of casein proteins from milk” value (casein; 38° C., pressures above 5514 kPa (about 800 psi)) is listed as “complete precipitation”, the “precipitation of skim milk casein” value (casein; 3515 kPa, 50° C. (Jordan et al., 1987)) is listed as 99% and the “raw skim milk caseins precipitated” value (casein; CO2 pressures above 1998 kPa, 3 h, 40° C. (Calvo and Bacones, 2001)) is listed as 85%. For the same compound, the casein precipitation (casein; CO2 pressures between 2757 and 5514 kPa, 38 to 49° C. (Tomasula, 1995)) was “complete casein precipitation”, the precipitation (milk solids; pressures of less than 2067 kPa, even after 60 min) was “could not be detected” and the precipitation (milk solids; 689 kPa for 60 min, 1378 kPa for 30 min, 2757 kPa for 5 min, 3446 kPa for 5 min) was “did not cause detectable precipitation”. The precipitated solids (milk solids; 2067 kPa (300 psi), 30 min) was 2.6 % (w/w) and the “precipitation of milk solids” value (milk solids; CO2 pressures greater than 1378 kPa (200 psi), 15 to 60 min, 20° C.) was “more than 1%”.
